# In the supplement of paper PMC12637763:
# Changes are numbered by the printed parent chain. The list shows a part of the results. Env chains of viruses from a treatment-interruption trial, translated from the printed DNA. IC50 / IC80 of two broadly neutralizing antibodies; lower = more sensitive virus; >50 µg/ml means not reached and <0.001 µg/ml is below the lowest dose. No active / inactive call.
# B1: HIV-1 Env, rebound clone, placebo arm (protein)
# chain: MKVKGTRMNWQHLWRWGTLMLGLVIICNASNTNLWVTVYYGVPAWEDADTTLFCASDAKAYSTEKHNVWATHACVPTDPNPQEISLPNVTENFDMWKNNMVEQMHEDIISLWDESLKPCVKLTPLCVTLTCSDINITNSSNTTTTNGNSMVDPEEIKNCTFNMTTEIIDKKKQEYALFYKLDIVQINNGNDNKDYRLINCNVSTIKQACPKVSFEPIPIHYCAPAGFAILKCKDKNFNGTGPCKNVSTVQCTHGIKPVVSTQLLLNGSLAEEDIVIRTKNITDNGNNIIVHLNESITINCTRPNNNTRKSIHLGQGQAFYATGAIIGDIRQAHCNVSGSQWINMIKRVAGKLKGVFSKNVTFNSSAGGDLEITTHSFNCGGEFFYCNTSNLFNSSILTSNNTNENITLPCKIRQIVRMWQTVGQAMYAPPIAGSIICTSNITGLILTRDGGSNETNGTDTFRPGGGNMKDNWRSELYKYKVVKIKPLGIAPTKARRRVVGREKRAIGVLGAALLGFLGTAGSTMGAASITLTVQVRQLLSGIVQQQSNLLRAIEAQQHLLQLTVWGIKQLQARVLAVERYLRDQQLLGIWGCSGKLICTTNVPWNASWSNKSYEEIWDNMTWIQWDREIDNYTQLIYSLIEESQNQQEKNEQDLLALDKWTSLWSWFDISNWLWYIRIFIIIVGGLIGLRIVFAVLSIVNRVRQGYSPLSLQTLLPHPPEADRPGEIEEGGGEQGRTRSIRLVNGFLALAWDDLRNLCLFLYHHLRDFILTAARTVETLGHRGWEILKYLGNLLCYWGQELKNSVINLLDTTAIAVGNWTDRFIELGQRVVRAVLHIPRRIRQELERALL
# B2: HIV-1 Env, rebound clone, placebo arm (protein)
# chain: MKVKGTRMNWQHLWRWGTLMLGLVIICNASNTNLWVTVYYGVPAWEDADTTLFCASDAKAYSTEKHNVWATHACVPTDPNPQEISLPNVTENFDMWKNNMVEQMQEDIISLWDESLKPCVKLTPLCVTLTCSDINITNSSNTTTTNGNNSMVDPEEIKNCTFNMTTEIIDKKKKEYAFFYKLDIVQINNGNDSKDYRLINCNVSTIKQACPKVSFEPIPIHYCAPAGFAILKCKDKNFNGTGPCKNVSTVQCTHGIKPVVSTQLLLNGSLAEEDIVIRTKNITDNDNNIIVHLNESITINCTRPNNNTRKSIHLGQGQAFYATGAIIGDIRQAHCNVSGSQWINMIKRVAGKLKGVFSKNVTFNSSAGGDLEITTHSFNCGGEFFYCNTSNLFNSSILTSNNTNENITLPCKIRQIVRMWQTVGQAMYAPPIAGSIICTSNITGLILTRDGGSNETNGTDTFRPGGGNMKDNWRSELYKYKVVKIKPLGIAPTKARRRVVGREKRAIGVLGAALLGFLGTAGSTMGAASITLTVQVRQLLSGIVQQQSNLLRAIEAQQHLLQLTVWGIKQLQARVLAVERYLRDQQLLGIWGCSGKLICTTNVPWNASWSNKSYEEIWDNMTWIQWDREIDNYTQLIYSLIEESQNQQEKNEQDLLALDKWTSLWSWFDISNWLWYIRIFIIIVGGLIGLRIVFAVLSIVNRVRQGYSPLSLQTLLPHPPEADRPGEIEEGGGEQGRTRSIRLVNGFLALAWDDLRNLCLFLYHHLRDFILTAARTVETLGHRGWEILKYLGNLLCYWGQELKNSVVSLLDTTAIAVGNWTDRFIELGQRVVRAVLHIPRRVRQGLERALL
# B3: HIV-1 Env, rebound clone, placebo arm (protein)
# chain: B2 chain with N28K, Q105H, T144I, Y176F, F178L, D286G, V807I, S808T
# Key:
# antibody 10-1074 [1] = test: neutralization IC50; higher = virus less sensitive to the antibody
# Experimental: (§1)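 Pseudovirus bearing the Env chain mixed with antibody, from 50 µg/ml in fivefold dilutions, on TZM-bl reporter cells, in duplicate.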
# antibody 3BNC117 [2] = test: as above
# Experimental: as §1
# antibody 10-1074 [3] = test: neutralization IC80; higher = virus less sensitive to the antibody
# Experimental: as §1
# antibody 3BNC117 [4] = test: as above
# Experimental: as §1
Binder,neutralization IC50 (antibody 10-1074 [1]),neutralization IC50 (antibody 3BNC117 [2]),neutralization IC80 (antibody 10-1074 [3]),neutralization IC80 (antibody 3BNC117 [4])
B1,0.006 µg/mL,0.188 µg/mL,0.013 µg/mL,0.813 µg/mL
B2,0.016 µg/mL,10.7 µg/mL,0.049 µg/mL,> 50 µg/mL
B3,0.01 µg/mL,0.228 µg/mL,0.031 µg/mL,0.767 µg/mL
